Here are results for two molecules from patent publication US5807688A (priority 1995, dated 1998).

Assay [1] relates to colorectal tumour cells (LoVo). The settings on record: in vitro cytoxicity; cited from earlier work.
The next assay has as its system LoVo cells. Nature of the assay: Sulforhodamine B (SRB) cytotoxicity assay. Particulars: 2 μM, 1 h incubation.
Assay [2] deals with JAR human choriocarcinoma cell line. The settings on record: cited from earlier work.

For the molecule `Oc1ccc(N(CCCl)CCCl)cc1`, in assay [1], the IC50 was 1 µM. Also, the “LoVo cells knocked out” value in the assay on LoVo cells was “ca. 50%”.
Take `O=C(O)c1ccc(N(CCCl)CCCl)cc1`: the IC50 in assay [2] is > 700 µM.
